Compound potency records, mixed from different reports. Data source: NIAID ChemDB in PubChem.

Common to all: growth or infection tests; organism: Mycobacterium avium complex

Percent inhibition refers to the dose given; in toxicity tests it is the harm to the cells. Blank or dashed fields: not listed here. Rows are shuffled and stem from different studies. ECn is the concentration giving n% inhibition of infection, replication or growth.

SMILES | strain | measure | method | dose | value
CCc1cc(C(N)=S)ccn1 | 56 strains | EC50 | agar | - | <5 µg/mL
CCCCO/N=C1\[C@H](C)CC(C)(O)[C@H](O[C@@H]2O[C@H](C)C[C@H](N(C)C)[C@H]2O)[C@@H](C)[C@H](OC2C[C@@](C)(OC)[C@@H](O)[C@H](C)O2)[C@@H](C)C(=O)O[C@H](CC)[C@@](C)(O)[C@H](O)[C@H]1C | 20039 (clarithromycin-susceptible) | MIC | - | - | 0.78 µg/mL
CO[C@H]1/C=C/O[C@@]2(C)Oc3c(C)c(O)c4c(=O)c(c5oc6cc(N7CCN(CC(C)C)CC7)cc(=O)c6nc5c4c3=C2O)NC(=O)/C(C)=C\C=C\[C@H](C)[C@H](O)[C@@H](C)[C@@H](O)[C@@H](C)[C@H](OC(C)=O)[C@@H]1C | N-961 (HIV+) | MIC | - | - | 0.05 µg/mL
CCO/N=C1\[C@H](C)CC(C)(O)[C@H](O[C@@H]2O[C@H](C)C[C@H](N(C)C)[C@H]2O)[C@@H](C)[C@H](OC2C[C@@](C)(OC)[C@@H](O)[C@H](C)O2)[C@@H](C)C(=O)O[C@H](CC)[C@@](C)(O)[C@H](O)[C@H]1C | 20096 (clarithromycin-resistant) | MIC | - | - | >50 µg/mL
CC(C)N=c1cc2n(-c3ccc(Cl)cc3)c3ccccc3nc-2cc1Nc1ccc(Cl)cc1 | 453 | MBC | - | - | 16 µg/mL
CCCCCCCCCCCCCCNNC(=O)O[C@H]1[C@H](O[C@@H]2[C@@H](C)[C@H](O[C@H]3C[C@@](C)(OC)[C@@H](OC(C)=O)[C@H](C)O3)[C@@H](C)C(=O)O[C@H](CC)[C@@](C)(O)[C@H](O)[C@@H](C)/C(=N/OCCCC3CCCCC3)[C@H](C)CC2(C)O)O[C@H](C)C[C@@H]1N(C)C | 20039 (clarithromycin-susceptible) | MIC | - | - | >50 µg/mL
CC1(C)N=C(N)N=C(N)N1OCCCOc1cc(Cl)c(Cl)cc1Cl | DW19 | MIC | - | - | 0.5 µg/mL
CCc1nc(N)nc(N)c1-c1ccc(Cl)cc1 | DW16 | MIC | - | - | 64 µg/mL
CC[C@H]1OC(=O)[C@H](C)[C@@H](O[C@H]2C[C@@](C)(OC)[C@@H](OC(C)=O)[C@H](C)O2)[C@H](C)[C@@H](O[C@@H]2O[C@H](C)C[C@H](N(C)C)[C@H]2O)C(C)(O)C[C@@H](C)/C(=N\OCCC2CCCCC2)[C@H](C)[C@@H](O)[C@]1(C)O | 20096 (clarithromycin-resistant) | MIC | - | - | 3.13 µg/mL
C[C@@H]1CN(c2c(F)c(N)c3c(=O)c(C(=O)O)cn(C4CC4)c3c2F)C[C@H](C)N1 | Isolate 90-0779 | MBC | - | - | 1 µg/mL
N[C@@H]1CONC1=O | 14 strains | inhibition | agar | 60 µg/mL | 100%
CC[C@H]1OC(=O)[C@H](C)[C@@H](O)[C@H](C)[C@@H](O[C@@H]2O[C@H](C)C[C@H](N(C)C)[C@H]2O)C(C)(O)C[C@@H](C)/C(=N\OCCCOc2ccccc2)[C@H](C)[C@@H](O)[C@]1(C)O | 20092 (clarithromycin-resistant) | MIC | - | - | >50 µg/mL
CO[C@H]1/C=C/O[C@@]2(C)Oc3c(C)c(O)c4c(O)c(c5c(c4c3C2=O)NC2(CCN(CC(C)C)CC2)N=5)=NC(=O)/C(C)=C\C=C\[C@H](C)[C@H](O)[C@@H](C)[C@@H](O)[C@@H](C)[C@H](OC(C)=O)[C@@H]1C | N-325 (HIV-) | MIC | - | - | 1 µg/mL
CCN=c1cc2n(-c3ccc(Cl)cc3)c3ccccc3nc-2cc1Nc1ccc(Cl)cc1 | 1017 | MBC | - | - | 64 µg/mL
CC1(C)N=C(N)N=C(N)N1OCCCOc1cc(Cl)c(Cl)cc1Cl | 1317 | MIC | - | - | 4 µg/mL
CC[C@H]1OC(=O)[C@H](C)[C@@H](O[C@H]2C[C@@](C)(OC)[C@@H](O)[C@H](C)O2)[C@H](C)[C@@H](O[C@@H]2O[C@H](C)C[C@H](N(C)C)[C@H]2O)[C@](C)(OC)C[C@@H](C)C(=O)[C@H](C)[C@@H](O)[C@]1(C)O | N-289 (HIV-) | MIC | - | - | 0.5 µg/mL

A second listing of 2 rows from above:

SMILES,strain,measure,method,dose,value
CCO/N=C1\[C@H](C)CC(C)(O)[C@H](O[C@@H]2O[C@H](C)C[C@H](N(C)C)[C@H]2O)[C@@H](C)[C@H](OC2C[C@@](C)(OC)[C@@H](O)[C@H](C)O2)[C@@H](C)C(=O)O[C@H](CC)[C@@](C)(O)[C@H](O)[C@H]1C,20096 (clarithromycin-resistant),MIC,-,-,>50 µg/mL
CCCCCCCCCCCCCCNNC(=O)O[C@H]1[C@H](O[C@@H]2[C@@H](C)[C@H](O[C@H]3C[C@@](C)(OC)[C@@H](OC(C)=O)[C@H](C)O3)[C@@H](C)C(=O)O[C@H](CC)[C@@](C)(O)[C@H](O)[C@@H](C)/C(=N/OCCCC3CCCCC3)[C@H](C)CC2(C)O)O[C@H](C)C[C@@H]1N(C)C,20039 (clarithromycin-susceptible),MIC,-,-,>50 µg/mL